Results of unrelated studies side by side (data: NIAID ChemDB).

Common to all: tests on isolated targets; species: Candida albicans

ICn is the concentration giving n% inhibition.

| structure | strain | endpoint | protein | value |
|---|---|---|---|---|
| Nc1ncc(CCc2ccccc2)c(N)n1 | - | IC50 | Dihydrofolate reductase | 3.369 µM |
| CCCCCCCC/C=C/CC/C=C/[C@H]1C[C@H]([C@](O)(CC(=O)O[C@@H](C(=O)O)[C@H](CC(=O)O)C(=O)O)C(=O)O)C(=O)O1 | - | IC50 | Geranylgeranyltransferase I | 5 µM |
| O=C(Nc1nc2ccc(NC(=O)[C@@H]3CCC[C@@H](NCc4ccc5ccccc5c4)C3)cc2s1)C1CCCC1 | - | IC50 | N-myristoyltransferase | 0.0012 µM |
| Cc1cccc(C)c1OCC(=O)N[C@@H](Cc1ccccc1)C[C@@H](O)[C@H](Cc1ccccc1)NC(=O)[C@@H](NC(=O)c1cc(=O)c2ccccc2[nH]1)c1cccs1 | H12 | IC50 | Aspartic protease SAP2 | 80 µM |
| CCCC(N)C(=O)NC(CNC(=O)/C=C/C(=O)OC)C(=O)O | - | IC50 | Glucosamine-6-phosphate synthetase | 241 µM |
| Cc1cccc(C)c1OCC(=O)N[C@@H](Cc1ccccc1)C[C@@H](O)[C@H](Cc1ccccc1)NC(=O)[C@H](NC(=O)c1cc(=O)c2ccccc2[nH]1)C(C)C | H12 | IC50 | Aspartic protease SAP2 | 140 µM |
| Nc1ncc(OCCc2c(Cl)cccc2Cl)c(N)n1 | - | IC50 | Dihydrofolate reductase | 3.102 µM |
| CC(C)C(=O)[O-] | Nce103 | Ki | Beta-carbonic anhydrase | 0.98 µM |
| CCC(C)CC(C)CCCCCCCCC(=O)N[C@H]1C[C@@H](O)[C@@H](O)NC(=O)[C@@H]2[C@@H](O)CCN2C(=O)[C@H]([C@H](O)CCNC(C)=O)NC(=O)[C@H]([C@H](O)Cc2ccc(O)cc2)NC(=O)[C@@H]2C[C@@H](O)CN2C(=O)[C@H]([C@@H](C)O)NC1=O | MY1055 | IC50 | Glucan synthase | 0.3 µM |
| CN(C)C(=O)c1ccc2nc(NC(=O)C3CCC(CN)CC3)sc2c1 | - | IC50 | N-myristoyltransferase | 0.01 µM |
| Cc1cccc(C)c1OCC(=O)N[C@@H](Cc1ccccc1)C[C@H](O)[C@H](Cc1ccccc1)NC(=O)[C@H](NC(=O)c1cc(=O)c2ccccc2[nH]1)C(C)C | H12 | IC50 | Aspartic protease SAP2 | >50 µM |
| CCC(C)CC(C)CCCCCCCCC(=O)N[C@H]1C[C@@H](O)[C@@H](O)NC(=O)[C@@H]2[C@@H](O)CCN2C(=O)[C@H]([C@H](O)CCN)NC(=O)[C@H]([C@H](O)Cc2ccc(O)cc2)NC(=O)[C@@H]2C[C@@H](O)CN2C(=O)[C@H]([C@@H](C)O)NC1=O | MY1055 | IC50 | Glucan synthase | 0.01 µM |
| O=C(Nc1nc2ccc(NC(=O)[C@H]3CC[C@@H](NCc4ccc5ccccc5c4)C3)cc2s1)C1CCCC1 | - | IC50 | N-myristoyltransferase | 0.015 µM |
| C=C1/C=C(\C)[C@H](CC)OC(=O)[C@H](C)C(=O)C(O)(CO)C/C(OC)=C/[C@@H](C)C1 | - | IC50 | Inositol phosphorylceramide synthase | 0.00007 µM |
| NC(=O)[C@@H](Cc1cnc[nH]1)NC(=O)[C@@H](Cc1cccc2ccccc12)NC(=O)C1Cc2ccccc2C1 | - | IC50 | Geranylgeranyltransferase | >3 µM |
| COC(=O)/C=C/C(=O)CC[C@H](N)C(N)=O.Cl | ATCC 10231 | IC50 | Glucosamine-6-phosphate synthase | 80.7 µg/mL |
| CC[C@H](C)[C@H](NC(=O)[C@H](Cc1ccccc1)C[C@H](O)[C@H](Cc1ccccc1)NC(=O)OC(C)(C)C)C(=O)N[C@@H](Cc1ccccc1)C(N)=O | - | IC50 | Aspartic proteinase | >100 µM |
| COc1ccc(OC(=O)c2csc(Cc3c(Cl)cccc3Cl)n2)cc1 | - | IC50 | Geranylgeranyl-protein transferase I | 0.02 µM |
| Nc1ncc(OCCc2cccc3ccccc23)c(N)n1 | - | IC50 | Dihydrofolate reductase | 0.431 µM |
| Cc1cccc(C)c1OCC(=O)N[C@@H](Cc1ccccc1)C[C@@H](O)[C@H](Cc1ccccc1)NC(=O)[C@@H](NC(=O)c1cc(=O)c2ccccc2[nH]1)c1cccs1 | - | IC50 | Secreted aspartic protease | 83 µM |
| Cc1cc2c3c(N)nc(N)nc3ccc2n1C | - | Ki | Dihydrofolate reductase | 0.000087 µM |
| C[C@H](N)C(=O)N[C@@H](C(=O)O)[C@H]1O[C@@H](n2ccc(=O)[nH]c2=O)[C@H](O)[C@@H]1O | - | IC50 | Chitin synthase | >100 µM |
| CC(C)=CCC/C(C)=C/Cc1c(O)cc(O)c(C(=O)c2ccccc2)c1O | - | IC50 | Aspartic protease | 40 µg/mL |
| CN(C)Cc1ccc(-c2ccc(C(=O)c3ccc(Br)cc3)cc2)cc1 | - | IC50 | Oxidosqualene cyclase | 0.1 µM |
| N[C@@H](Cc1cccc(F)c1)C(=O)N[C@H](C(=O)O)[C@H]1O[C@@H](n2ccc(=O)[nH]c2=O)[C@H](O)[C@@H]1O | H317 | IC50 | Chitin synthase | 2 µg/mL |
| CCOc1c(Cl)cc2nc(S(N)(=O)=O)sc2c1Cl | - | IC50 | Geranylgeranyl-protein transferase I | 0.11 µM |
| CC(C)(C)OC(=O)N[C@@H](Cc1ccccc1)[C@H](O)C[C@H](Cc1ccccc1)C(=O)N[C@@H](CCC(=O)O)C(=O)N[C@@H](Cc1ccccc1)C(N)=O | - | IC50 | Aspartic proteinase | 14 µM |
| Cc1cc(Cl)c2nc(-c3ccc(Br)cc3)cc(C(=O)O)c2c1 | - | IC50 | Prolyl-tRNA synthetase | 0.22 µM |
| CC(C)(C)OC(=O)N[C@@H](Cc1ccccc1)[C@H](O)C[C@H](Cc1ccccc1)C(=O)N[C@@H](CCC(N)=O)C(=O)N[C@@H](Cc1ccccc1)C(N)=O | - | IC50 | Aspartic proteinase | 28 µM |
| CC(=CCC/C=C(\C)CCC=C(C)CCC[N+](C)(C)[O-])CC/C=C(\C)CCC1OC1(C)C | - | IC50 | Oxidosqualene cyclase (microsomal) | 19 µM |
| CC(C)(C)OC(=O)N[C@@H](Cc1ccccc1)[C@@H](O)C[C@@H](Cc1ccccc1)C(=O)N[C@@H](CCC(N)=O)C(=O)N[C@@H](Cc1ccccc1)C(N)=O | - | IC50 | Aspartic proteinase | >100 µM |
| COC(=O)c1ccc2nc(NC(=O)CC3CCC[C@@H](N)C3)sc2c1 | - | IC50 | N-myristoyltransferase | 1.4 µM |
| CC[C@H](C)[C@H](NC(=O)[C@H](Cc1ccccc1)C[C@@H](O)[C@H](Cc1ccccc1)NC(=O)OC(C)(C)C)C(=O)N[C@@H](Cc1ccccc1)C(N)=O | - | IC50 | Aspartic proteinase | >100 µM |
| NC(=O)NCCC[C@H](N)C(=O)N[C@@H](C(=O)O)[C@H]1O[C@@H](n2ccc(=O)[nH]c2=O)[C@H](O)[C@@H]1O | - | IC50 | Chitin synthase | >100 µM |
| CC(=O)c1ccc(OCC(=O)N[C@@H](Cc2ccccc2)C[C@H](O)[C@H](Cc2ccccc2)NC(=O)COc2ccc(C(C)=O)cc2)cc1 | H12 | IC50 | Aspartic protease SAP2 | 5 µM |
| COc1ccc2nc(NC(=O)C(=O)C(C(=O)c3ccc(-c4ccccc4)cc3)C3OC(=O)c4ccccc43)sc2c1 | - | IC50 | Farnesyl-protein transferase | 15 µM |
| CC(C)=CCc1ccc(O)c2oc3cc(O)cc(O)c3c(=O)c12 | - | IC50 | Aspartic protease | 25 µg/mL |
| Cc1cccc(C)c1OCC(=O)N[C@@H](Cc1ccccc1)C[C@@H](O)[C@H](Cc1ccccc1)NC(=O)[C@H](NC(=O)c1cc(=O)c2ccccc2[nH]1)[C@H](C)O | - | IC50 | Secreted aspartic protease | 120 µM |
| CC(C)(C)OC(=O)N[C@@H](Cc1ccccc1)[C@H](O)C[C@@H](Cc1ccccc1)C(=O)N[C@@H](CCC(N)=O)C(=O)N[C@@H](Cc1ccccc1)C(N)=O | - | IC50 | Aspartic proteinase | >100 µM |
| O=Cc1ccc(OCC(=O)N[C@@H](Cc2ccccc2)C[C@@H](O)[C@H](Cc2ccccc2)NC(=O)COc2ccc(C=O)cc2)cc1 | H12 | IC50 | Aspartic protease SAP2 | 30 µM |
| CCOC(=O)c1oc2cccc(OCCCN3CCCCC3)c2c1C | CY1002 | IC50 | N-myristoyltransferase | 4.1 µM |

The last 4 rows once more:

structure | strain | endpoint | protein | value
Cc1cccc(C)c1OCC(=O)N[C@@H](Cc1ccccc1)C[C@@H](O)[C@H](Cc1ccccc1)NC(=O)[C@H](NC(=O)c1cc(=O)c2ccccc2[nH]1)[C@H](C)O | - | IC50 | Secreted aspartic protease | 120 µM
CC(C)(C)OC(=O)N[C@@H](Cc1ccccc1)[C@H](O)C[C@@H](Cc1ccccc1)C(=O)N[C@@H](CCC(N)=O)C(=O)N[C@@H](Cc1ccccc1)C(N)=O | - | IC50 | Aspartic proteinase | >100 µM
O=Cc1ccc(OCC(=O)N[C@@H](Cc2ccccc2)C[C@@H](O)[C@H](Cc2ccccc2)NC(=O)COc2ccc(C=O)cc2)cc1 | H12 | IC50 | Aspartic protease SAP2 | 30 µM
CCOC(=O)c1oc2cccc(OCCCN3CCCCC3)c2c1C | CY1002 | IC50 | N-myristoyltransferase | 4.1 µM

An empty or dashed field is not shown. Lines come from different laboratories, so protocols vary.